Laboratory results reported in US20080171347A1.

Target: mouse synaptosomes (synaptosome preparation carrying the BoNT/A acceptor complex)

Substance: active botulinum neurotoxin type A (BoNT/A) (from UniProt P0DPI1 2-1296)
- percent binding inhibition: > 20
